Counter-ions that a name gives are not always drawn.
Columns and labels:
Assay type in all cases: cell-based, Zika virus
ZIKV Paraiba/2015 [1] = assay: Viral inhibition assay, post-infection treatment, Vero cells; conditions: for SI (MTT): CC50 (MTT)/EC50, Paraiba/2015, Vero; for SI (XTT): CC50 (XTT)/EC50, Paraiba/2015, Vero
ZIKV MR-766 strain = assay: Viral inhibition assay, post-treatment, old World strain, Vero cells; conditions: for SI (MTT): CC50 (MTT)/EC50, MR-766, Vero; for SI (XTT): CC50 (XTT)/EC50, MR-766, Vero
ZIKV Paraiba/2015 [2] = assay: Viral inhibition assay, co-treatment, Vero cells; conditions: for SI (MTT): CC50 (MTT)/EC50, Paraiba/2015, Vero; for SI (XTT): CC50 (XTT)/EC50, Paraiba/2015, Vero
ZIKV PRVABC59 strain = assay: Viral inhibition assay, post-treatment, new World strain, Vero cells; conditions: for SI (MTT): CC50 (MTT)/EC50, PRVABC59, Vero; for SI (XTT): CC50 (XTT)/EC50, PRVABC59, Vero
ZIKV Paraiba/2015 [3] = assay: Viral inhibition assay, post-treatment, human A549 cells; conditions: for SI (MTT): CC50 (MTT)/EC50, Paraiba/2015, A549 cells; for SI (XTT): CC50 (XTT)/EC50, Paraiba/2015, A549 cells

Molecule	SI (MTT) (ZIKV Paraiba/2015 [1])	SI (XTT) (ZIKV Paraiba/2015 [1])	SI (MTT) (ZIKV MR-766 strain)	SI (XTT) (ZIKV MR-766 strain)	SI (MTT) (ZIKV Paraiba/2015 [2])	SI (XTT) (ZIKV Paraiba/2015 [2])	SI (MTT) (ZIKV PRVABC59 strain)	SI (XTT) (ZIKV PRVABC59 strain)	SI (MTT) (ZIKV Paraiba/2015 [3])	SI (XTT) (ZIKV Paraiba/2015 [3])
Cc1c(-c2ccc(-c3ccccc3F)cc2)nc2ccc(F)cc2c1C(=O)O [Brequinar, Brequinar sodium salt hydrate]	157.42	>894.04	4754.00	>27,000.00	27.29	>154.99	2971.25	>16,875.00	>2500.00	>2500.00
O=C(O)C1=CC(=C(c2ccc(O)c(C(=O)O)c2)c2ccc(O)c(C(=O)O)c2)C=CC1=O [ATA, Aurintricarboxylic acid]	>54.00	>54.00	>167.08	>167.08	>780.34	>780.34	>284.81	>284.81	>7.49	>7.49
COc1c(C)c2c(c(O)c1C/C=C(\C)CCC(=O)OCCN1CCOCC1)C(=O)OC2 [Mycophenolate mofetil]	47.24	>383.52	692.92	>5625.00	73.26	>594.71	1385.83	>11,250.00	>60.24	>60.24
O=c1cnn([C@@H]2O[C@H](CO)[C@@H](O)[C@H]2O)c(=O)[nH]1 [Azauridine, 6-azauridine]	36.32	>314.69	205.00	>1776.32	1.19	>10.36	106.71	>924.66	>113.64	>113.64
NC(=O)c1[nH]nc([C@@H]2O[C@H](CO)[C@@H](O)[C@H]2O)c1O [Pyrazofurin]	45.35	>226.51	304.04	>1516.85	6.93	>34.55	284.84	>1421.06	>151.52	>151.52
NCC(=O)Nc1ccc(-n2nc(C(F)(F)F)cc2-c2ccc3c(ccc4ccccc43)c2)cc1 [OSU-03012]	0.76	15.77	7.89	163.58	3.61		3.80	78.87	>238.09	>238.09
CCCCCC[C@H]1C(=O)O[C@H](C)[C@H](NC(=O)c2cccc(NC=O)c2O)C(=O)O[C@@H](C)[C@@H]1OC(=O)CC(C)C [Antimycin A]	25.64	>675.00	1709.33	>45,000.00	14.65	>385.71	7.01	>184.43	>29.24	>29.24
2′,3′,5′-Triacetyl-6-azauridine [Azaribine]	146.29	>833.33	97.53	>555.56	91.51	>521.23	211.61	>1205.36	>73.53	>73.53
CC[C@H](CC#N)OC(=O)N[C@@H](C)c1cccc(NC(=O)Nc2ccc(-c3cnco3)c(OC)c2)c1 [AVN-944]	278.16	>1377.55	826.06	>4090.91	34.16	>169.17	717.37	>3552.63	>1000.00	>1000.00
COC1=CC(c2cc3ccccc3[nH]2)=N/C1=C\c1[nH]c(C)cc1C [Obatoclax, Obatoclax mesylate]	27.89	95.94	47.49	163.35	60.58	208.41	42.85	147.41	>78.13	>78.13
COc1c(C)c2c(c(O)c1C/C=C(\C)CCC(=O)O)C(=O)OC2 [Mycophenolic acid]	64.65	>316.90	1836.00	>9000.00	6.59	>32.33	1251.82	>6136.36	>76.92	>76.92
